A mixed list of measured activities; the numbers were collected in NIAID ChemDB.

Shared fields: tests in culture; agent: HIV-1; cell line: MT-4; measure: fold resistance

An empty or dashed field is not shown. Rows are shuffled and stem from different studies. Fold resistance: result on the changed form divided by that on wild type.

SMILES,strain,mutations,method,value
CC(C)CN(C[C@@H](O)[C@H](Cc1ccccc1)NC(=O)[C@H](CC(N)=O)NC(=O)c1ccc2ccccc2n1)C(=O)NC(C)(C)C,NL4-3,PR-L10R L63P V82T I84V,p24,4
CCOC(=O)/C=C/c1cccc(C(=O)c2c(CC)c(C)[nH]c(=O)c2N(C)C)c1,,RT-Y181C,cytopathic effect / MTT,52.6
CC(C)Nc1cccnc1N1CCN(C(=O)c2cc3cc(NS(C)(=O)=O)ccc3[nH]2)CC1,NI-10.93 (HXB2 RT T69N K70R Q151M),RT-T69N K70R Q151M,cytopathic effect,2
COc1ccc2c(c1)N(C(=O)OC(C)C)[C@@H](CSC)C(=S)N2,Recombinant mutant,RT-E138A,cytopathic effect / MTT,1.6
Cc1ccnc2c1NC(=O)c1cccnc1N2C1CC1,A17,RT-K103N Y181C,cytopathic effect / MTT,>588
COC(=O)N[C@H](C(=O)N[C@@H](Cc1ccccc1)[C@@H](O)CN(Cc1ccc(-c2ccccn2)cc1)NC(=O)[C@@H](NC(=O)OC)C(C)(C)C)C(C)(C)C,NL4-3,L23I E34Q K43I M46I I50L G51A L63P A71V V82A T91A,p24 / luminescence,>500
CCc1c(C)[nH]c(=O)c(N(C)C)c1C(=O)c1cccc(/C(C)=C(\C)C#N)c1,,RT-K103N,cytopathic effect / MTT,4.1
Nc1ccn([C@H]2CC[C@@H](CO)O2)c(=O)n1,T3-16(RT-Y181C),RT-Y181C,cytopathic effect / XTT,0.7
O=c1[nH]cnc2c1ncn2[C@H]1CC[C@@H](CO)O1,HXB2-D184 (RT-M184V),RT-M184V,RT activity,5.1
CCn1c(=O)c(C)cn([C@@H]2O[C@H](CO[Si](C)(C)C(C)(C)C)C3(OS(=O)(=O)C=C3N)[C@H]2O[Si](C)(C)C(C)(C)C)c1=O,IIIB,RT-E138K,cytopathic effect / MTT,2032
CCOCn1c(Cc2ccccc2)c(C(C)C)c(=O)[nH]c1=O,,RT-V179E,cytopathic effect / MTT,4
CC(C)CN(C[C@@H](O)[C@H](Cc1ccccc1)NC(=O)O[C@H]1CCOC1)S(=O)(=O)c1ccc(N)cc1,NL4-3,PR-N88D,p24,0.25
Cc1cn([C@H]2C=C[C@@H](CO)O2)c(=O)[nH]c1=O,NI-10.93 (HXB2 RT T69N K70R Q151M),RT-T69N K70R Q151M,cytopathic effect,>24
CCc1c(C)[nH]c(=O)c(N(C)C)c1C(=O)c1cccc(/C=C/C#N)c1,,RT-K101E K103N,cytopathic effect / MTT,16
O=c1[nH]cnc2c1ncn2[C@H]1CC[C@@H](CO)O1,FO-08.96 (HXB2 RT F77L F116Y Q151M),RT-F77L F116Y Q151M,cytopathic effect,12.3
CC(=O)c1ccc(C)cc1NC(C(N)=O)c1c(Cl)cccc1Cl,Recombinant mutant,RT-A98S E138A,cytopathic effect / MTT,2.1
CCc1c(C)[nH]c(=O)c(N(C)C)c1C(=O)c1cccc(C=O)c1,,RT-K103N,cytopathic effect / MTT,15.7
COc1c(O)c(Cl)c2c(c1OC)-c1c(c(Cl)c(O)c(OC)c1OC)C[C@H](C)[C@H](C)C2,TIBO-resistant L100I (RT-L100I),RT-L100I,cytopathic effect / MTT,1
CC(C)(C)NC(=O)[C@@H]1C[C@@H]2CCCC[C@@H]2CN1C[C@@H](O)[C@H](Cc1ccccc1)NC(=O)[C@H](CC(N)=O)NC(=O)c1ccc2ccccc2n1,NL4-3,PR-M46I V82T,p24,1
Cc1cn([C@H]2C[C@H](N=[N+]=[N-])[C@@H](CO)O2)c(=O)[nH]c1=O,118(RT-L100I),RT-L100I,cytopathic effect / XTT,0.5
Nc1ccn([C@H]2CC[C@@H](CO)O2)c(=O)n1,IIIB BCH-189-resistant (RT M184V),RT-M184V,p24,5.78
COc1c(O)c(I)c2c(c1OC)-c1c(c(I)c(O)c(OC)c1OC)C[C@H](C)[C@H](C)C2,A17,RT-K103N Y181C,cytopathic effect / MTT,33.5
Cc1cn([C@H]2C[C@H](N=[N+]=[N-])[C@@H](CO)O2)c(=O)[nH]c1=O,HXB2-D50(RT-I50T),RT-I50T,p24,1
Cc1cn([C@@H]2O[C@H](CO[Si](C)(C)C(C)(C)C)C3(OS(=O)(=O)C=C3N)[C@H]2O[Si](C)(C)C(C)(C)C)c(=O)n(C)c1=O,HXB2 (RT E138A S162C E169D T200A L214F) Clinical isolate,RT-E138A S162C E169D T200A L214F,cytopathic effect / MTT,706
O=c1[nH]cnc2c1ncn2[C@H]1CC[C@@H](CO)O1,T3-16(RT-Y181C),RT-Y181C,cytopathic effect / XTT,1.08
CCc1c(C)[nH]c(=O)c(N(C)C)c1C(=O)c1cccc(/C=C/c2cnccn2)c1,,RT-Y181C,cytopathic effect / MTT,3.9
O=S(=O)(O)OC1C(OS(=O)(=O)O)C(OS(=O)(=O)O)C(OS(=O)(=O)O)C(OS(=O)(=O)O)C1OS(=O)(=O)O,NL4-3,GP120-K320Q,cytopathic effect / MTT,>25
CC(C)Nc1cccnc1N1CCN(C(=O)c2cc3cc(NS(C)(=O)=O)ccc3[nH]2)CC1,,RT-K103N,cytopathic effect / MTT,39.7
CCc1c(C)[nH]c(=O)c(N(C)C)c1C(=O)c1cc(Cl)cc(Cl)c1,,RT-E138K,cytopathic effect / MTT,8.5

4 of the rows above, restated:

SMILES	strain	mutations	method	value
CCc1c(C)[nH]c(=O)c(N(C)C)c1C(=O)c1cccc(/C=C/C#N)c1		RT-K101E K103N	cytopathic effect / MTT	16
Nc1ccn([C@H]2CC[C@@H](CO)O2)c(=O)n1	IIIB BCH-189-resistant (RT M184V)	RT-M184V	p24	5.78
Cc1cn([C@H]2C[C@H](N=[N+]=[N-])[C@@H](CO)O2)c(=O)[nH]c1=O	118(RT-L100I)	RT-L100I	cytopathic effect / XTT	0.5
CCc1c(C)[nH]c(=O)c(N(C)C)c1C(=O)c1cccc(/C=C/c2cnccn2)c1		RT-Y181C	cytopathic effect / MTT	3.9